Source: the supplement of paper PMC9931576
Human monoclonal antibodies against the spike receptor-binding domain (heavy:light variable regions). IC50 against pseudoviruses bearing the spike of naturally observed variants; lower = stronger; >10 µg/ml means not reached at the top dose. No active / inactive call. The stated detection limit is 0.0005 µg/ml; values near or below 0.001 µg/ml lie at the floor of the assay.

B1: BD55-6051 (protein)
chain 1: QVQLGQSGAEVKKPGASVKVSCKASGYTFPSYGITWVRQAPGQGLEWMGWIGDSNGNTYYAQKFQGRATMTTDTSTSTAYMELRGLRSDDTAVYYCARDRAYSGYDYLDHYYGMDVWGQGTTVTVSS
chain 2: EIALTQSPATLSLSPGERATLSCRASQSISSHLAWYQQKPGQAPRLLIYDASNRATGIPARFSGSGSGTDFTLTISSLEPEDFAVYYCQQRSKWPPYTFGQGTKLEIK
B2: BD55-6053 (protein)
chain 1: EVQLVESGGGLVKTGGSLRLSCAASGFTFSTYSMNWVRQAPGKGLEWVSYISSSSSTIYYADSVKGRFTISRDNAKNLLYLQMNSLRDEDTAVYYCARWEGDYDLLTGYWGHFHYYGMDVWGQGTTVTVSS
chain 2: DIVMTQSPGSLAVSLGERATINCKSSQSVLYSPYNKDYLAWYQQKPGQPPKLLIYWASTRESGVPDRFSGSGSGTDFTLTISSLQAEDVAVYYCQQYYSIPLTFGGGTKVEIK
B3: BD55-6055 (protein)
chain 1: EVQLVESGGGLVKPGGSLRLSCAASGFTFSTFSMTWVRQPPGKGLEWVSSISRNSGLIFYADSVKGRFTVSRDNVKNSLHLQLSSLRAEDTAVYYCTREGSGQVAPLDYWGQGILVTVSS
chain 2: DIHMTQSPSSLSASVGDRVTITCRASQAIRNSLAWYQQKPGKAPKLLVYAASTLQSGVPPRFSGSGSGTDYTLTISSLQPEDFATYFCQQYYVTPQVTFGGGTKVEIK
B4: BD55-6061 (protein)
chain 1: QVHLQESGPGLVKPSETLSLTCTVSGVSIVNSYWSWLRQPPGKGLEWVGYAYYSGDTNYNPSLKTRVSMSVDTSKKQFSLKLTSVTAADTAVYYCARHTPFCGGDCYPNFFYGMDVWGQGTTVTVSS
chain 2: DIQMTQSPSTLSASVGDRVTITCRASQTIGRWSAWYQQKPGTAPKLLISEASHLEGGVPSRFSGSGSGTEFTLTINSLQPDDFATYYCQQYSDFPWTFGRGTKVEIK
B5: BD55-6064 (protein)
chain 1: QVQLVQSGAEVKKPGASVKVSCQASGYTFTNYYIHWVRQAPGHGLEWMGVINPSDDNTRYAQKFQGRVTLTWDTSTSTVYMELSSLRSEDTAVYYCAREERNYDLLTHYYHYGMDVWGQGSTVTVSS
chain 2: DIQMTQSPSSLSASVGDRVTITCRASQSISSYLNWYQQKPGKAPELLIYAASSLQSGVPSRFSGSESGTEFTLTISSLQREDFATYYCQQSYITPLTFGQGTKVEI
B6: BD55-6077 (protein)
chain 1: QVTLKESGPVLVKPTETLTLTCTVSGFSLSDAKLGVTWIRQPPGKALEWLALIFSNDDKSYSTSLESRLTISKDTSKSQVVLTMTNMDPVDTATYYCARLQTETYYYDSSGYYFDYWGQGTLVTVSS
chain 2: YELTQPPSVSVSPGQTARITCSGDALPMQWAYWYQQRPGQAPVVIIYKDSERPSGIPERFSGSSSGTTVTLTISGVQAEDEADYYCQSADSRGTVFGGGTKLTVL
B7: BD55-6078 (protein)
chain 1: QLQLQESGPGLVKPSETLSLTCTVSGGSISGSFYYWAWIRQPPGKGLEWIGSIDYSGSTHYNPSLKSRLTMSVDTSRNHFSLKLSSVSAADTALYYCAGHSQWFVPYWSFDLWGRGSLVSVSS
chain 2: SCVLTQPPSVSVAPGKTARISCGLDNIGSKTVHWYMQKPGRAPVLVFYDGSGRPSGSPDRFSGSSSGNTATLTISRVDAGDEADYYCQVWDSSCDVVFGGGTKLTVL
B8: BD55-6079 (protein)
chain 1: EVKLVESGGGLAQPGGSLRLSCAASGFTFTNYDMHWVRQRAGKGLEWVSSIGSAGDTYYAASVKGRFTISRETDLYLQMSDLRVGDTAVYYCTRVGYGDYDLLGMDVWGQGTMVTVSS
chain 2: SYDLTQPPSVSVSPGQTARITCSGDALPRMYVYWYHQKPGQAPVMLIYKDSERPSGIPERISGSTSGTTVTLTISGVLAEDEGDYYCQTLDSGGSVFGGGTKLTVL
B9: BD55-6090 (protein)
chain 1: VQLVESVGGLAQPGGSLRLSCAASGFTFSKFWMTWVRQAPGKGLEWVANINQDGTETFYADSVKGRFTISRDNAKNSLDLQMNTLRVEDTAVYYCARVDGYRTGGHYVLDYYMDVWGKGTTVTVSS
chain 2: SYELTQPSSVSVSPGQTARITCSGDALARQYVYWYQQKSGQAPVLMIYKDRERPSGIPERFSGSTSGTIVTLTISGVQAEDEADYYCQSADSSGTNMIFGGGTKLTVL
B10: BD55-1171 (protein)
chain 1: QVHLVQSGTEVKRPGASVKVSCKASGYLFTGYHMHWVRQAPGQGLEWMGWINPMSGATKYARKFQGRVTLTRDTSVTTVYMELSRLRSDDSAVYYCARDTSFSVTTPDDAFDVWGQGTMVTVSS
chain 2: QSLLTQPPSVSGAPGQRVTISCTGSSSNIGAGYVVHWYQQLPGTAPKLLIYDNSSRPSGVPDRFSASKSGASASLAITGLQAEDEANYYCQSFDISLSLWVFGGGTKLTVL
B11: BD55-6092 (protein)
chain 1: QVHLQESGPGLVKPSETLSLTCSVSGDSVTSGDFRWSWIRQPPGKGLEWIGSFYYIGTTEYNPSLKSRVSISVDTSANQLSLDLNSVTAADTALYYCARLPAFSGYDLWASGDYWGRGTLVIVSS
chain 2: EIVLTQSPGTLSLSPGERATLSCRASQSVGSNYLAWHQHKPGQAPRLLIYEASSRATGIPDRFSGSGSGTDFTLTISRLEPEDFAVYYCQQYVTSPWTFGQGTKVEIK
B12: BD55-6099 (protein)
chain 1: QVQLEQSGAEVKKPGASVKVSCKVSGYTLTELSMHWVRQAPGKGLEWMGSFDPEDGDTIYAQNFQGRVTITEDTSTDTAYMELSSLRSDDTAVYYCATSGRYEYVWGTYRPRAFVIWGQGTMVTVSS
chain 2: QSALTQPPSASGSPGQSVTISCTGTSSDIGTYNYVSWYQQHPGKAPKLIIYEVSKRPSGVPDRFSGSKSGNSASLTVSGLQAEDEADYYCSSYAISLTSLYVFGTGTKVTVL

Key:
Experiment in all cases: pseudovirus neutralization IC50; higher = weaker neutralization
[1] = target: SARS-CoV-2 Omicron BA.1 spike pseudovirus
Method: (§1)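 Single-round VSV luciferase pseudovirus mixed with antibody dilutions for 1 h and put on Huh-7 cells for about a day; IC50 from the dose curve.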

[2] = target: SARS-CoV-2 Omicron BA.2 spike pseudovirus
Method: as §1

[3] = target: SARS-CoV-2 Omicron BA.2.75 spike pseudovirus
Method: as §1

[4] = target: SARS-CoV-2 Omicron BA.5 spike pseudovirus
Method: as §1

[5] = target: SARS-CoV-2 Omicron BQ.1.1 spike pseudovirus
Method: as §1

[6] = target: SARS-CoV-2 Omicron XBB spike pseudovirus
Method: as §1

[7] = target: SARS-CoV-2 early D614G spike pseudovirus
Method: as §1

| Binder | pseudovirus neutralization IC50 [1] | pseudovirus neutralization IC50 [2] | pseudovirus neutralization IC50 [3] | pseudovirus neutralization IC50 [4] | pseudovirus neutralization IC50 [5] | pseudovirus neutralization IC50 [6] | pseudovirus neutralization IC50 [7] |
| --- | --- | --- | --- | --- | --- | --- | --- |
| B1 | > 10 µg/mL | > 10 µg/mL | > 10 µg/mL | > 10 µg/mL | > 10 µg/mL | > 10 µg/mL | > 10 µg/mL |
| B2 | > 10 µg/mL | > 10 µg/mL | > 10 µg/mL | > 10 µg/mL | > 10 µg/mL | > 10 µg/mL | > 10 µg/mL |
| B3 | > 10 µg/mL | > 10 µg/mL | > 10 µg/mL | > 10 µg/mL | > 10 µg/mL | > 10 µg/mL | > 10 µg/mL |
| B4 | > 10 µg/mL | > 10 µg/mL | > 10 µg/mL | > 10 µg/mL | > 10 µg/mL | > 10 µg/mL | > 10 µg/mL |
| B5 | > 10 µg/mL | > 10 µg/mL | > 10 µg/mL | > 10 µg/mL | > 10 µg/mL | > 10 µg/mL | > 10 µg/mL |
| B6 | > 10 µg/mL | > 10 µg/mL | > 10 µg/mL | > 10 µg/mL | > 10 µg/mL | > 10 µg/mL | > 10 µg/mL |
| B7 | > 10 µg/mL | > 10 µg/mL | > 10 µg/mL | > 10 µg/mL | > 10 µg/mL | > 10 µg/mL | 0.707 µg/mL |
| B8 | > 10 µg/mL | > 10 µg/mL | > 10 µg/mL | > 10 µg/mL | > 10 µg/mL | > 10 µg/mL | > 10 µg/mL |
| B9 | > 10 µg/mL | > 10 µg/mL | > 10 µg/mL | > 10 µg/mL | > 10 µg/mL | > 10 µg/mL | > 10 µg/mL |
| B10 | > 10 µg/mL | > 10 µg/mL | > 10 µg/mL | > 10 µg/mL | > 10 µg/mL | > 10 µg/mL | 0.00172 µg/mL |
| B11 | > 10 µg/mL | > 10 µg/mL | > 10 µg/mL | > 10 µg/mL | > 10 µg/mL | > 10 µg/mL | 0.637 µg/mL |
| B12 | > 10 µg/mL | > 10 µg/mL | > 10 µg/mL | > 10 µg/mL | > 10 µg/mL | > 10 µg/mL | > 10 µg/mL |
